Experimental data published in the supplement of paper PMC9931576.
Numbering of substitutions follows the chain as printed. Human monoclonal antibodies against the spike receptor-binding domain (heavy:light variable regions). IC50 against pseudoviruses bearing the spike of naturally observed variants; lower = stronger; >10 µg/ml means not reached at the top dose. No active / inactive call. The stated detection limit is 0.0005 µg/ml; values near or below 0.001 µg/ml lie at the floor of the assay.

B1: BD55-6256 (protein)
chain 1: QITLKESGPTLVKPTQTLTLTCTFSGFSLSTTGVGVGWIRQPPGKALEWLALLYWDDDKRYSPSLKSRLTVTKDTSKNQVVLTMTNMDPVDTATYYCAHTSRLNYFGSGSYLDYWGQGTLVTVSS
chain 2: EIVLTQSPDTLSLSPGERATLSCRASQSVSIFLAWYQQKPGQAPRLLFYDASTRATGIPDRFSVSGSGTDFTLTISRLEPEDFAVYYCQHYGSSPPGTFGQGTRLETK
B2: BD55-6258 (protein)
chain 1: QVHLVESGGGVVQPGRSLRLSCAASGFTFSTYGIHWVRQAPGKGLEWVALIWNDGSKTYYPDSVKGRFTISRDNSKNTVSLQMNSLRDEDTAVYYCARDSLCSGGICYFDYNWFDVWGQGTLVTVSS
chain 2: EIVLTQSPATLSLSPGERVTLSCKASQSVSRHLAWYQQKPGQPPRLLIYDASNRATGVPARFSGSGSGTDFTLTISSLEPEDFAVYYCQQRYTWPPAYTFGQGTKLQIK
B3: BD55-6261 (protein)
chain 1: QLRLQESGPGLVKPSETLSLTCTVSDDSISSSNYYWGWVRQPPGKGLEWIGTIYYTGVTYYSPSLKSRVTMSVDTSRNQFSLTLTSVTAADTALYYCARHLGGDREERLTSSWYDSWTGGHFDLWGRGSRVTVSS
chain 2: QSVLTQPPSVSGAPGQRVTISCTGSSSNIGASYDVHWYQQLPGTAPKLLIYGNNNRPSGVPDRFSGSKSGTSASLAITRLQAEDEADYYCQSYDSNMSGWVFGGGTKLTVL
B4: BD55-6262 (protein)
chain 1: QVQLVQSGAEVKKPGSSVKVSCKASGGTFINYPISWVRQAPGQGLECMGRIIPLLGTAHYAQKFQGRVTITADKSTNTAYMDLSSLKSEDTAMYYCARGRVDYSGYDFWGVEDFDSWGQGTLVTVSS
chain 2: EIVMTQSPATLSVSPGERATLSCRASQSVSSNLAWYQQKHGQAPRLLIYDASTRATGIPARFSGSGSGTEFTLTISSLQSEDFAVYYCQQYNDWPPAFGGGAKVEIK
B5: BD55-6264 (protein)
chain 1: QVQLVQSGAEVKKPGASVKVSCKASGYTFTAYDINWMRLATGQGLEWMGWMNPNTGDTGYAHKFQGRVSMTRDTSSSTAYMELSSLRSEDTAVYYCAIGQRRYYYGLGSQWGQGTQVTVSS
chain 2: DIQMTQSPSSLPASVGDRVTITCRASQSISTYLNWYQRKPGKAPKLLIYDASSVESGVPSRFSGSGTRTDFTLTITSLQPEDFATYYCQQSYSFPYNFGQGTKLEI
B6: BD55-6266 (protein)
chain 1: B2 chain 1 with H3Q, T31S, Y32H, S80Y, I106S
chain 2: B2 chain 2 with R45S

Tests used:
Test in all cases: pseudovirus neutralization IC50; higher = weaker neutralization
[1] = molecular target: SARS-CoV-2 Omicron BA.1 spike pseudovirus
Protocol: (§1)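 Single-round VSV luciferase pseudovirus mixed with antibody dilutions for 1 h and put on Huh-7 cells for about a day; IC50 from the dose curve.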

[2] = molecular target: SARS-CoV-2 Omicron BA.2 spike pseudovirus
Protocol: as §1

[3] = molecular target: SARS-CoV-2 Omicron BA.2.75 spike pseudovirus
Protocol: as §1

[4] = molecular target: SARS-CoV-2 Omicron BA.5 spike pseudovirus
Protocol: as §1

[5] = molecular target: SARS-CoV-2 Omicron BQ.1.1 spike pseudovirus
Protocol: as §1

[6] = molecular target: SARS-CoV-2 Omicron XBB spike pseudovirus
Protocol: as §1

[7] = molecular target: SARS-CoV-2 early D614G spike pseudovirus
Protocol: as §1

Binder | pseudovirus neutralization IC50 [1] [µg/mL] | pseudovirus neutralization IC50 [2] [µg/mL] | pseudovirus neutralization IC50 [3] [µg/mL] | pseudovirus neutralization IC50 [4] [µg/mL] | pseudovirus neutralization IC50 [5] [µg/mL] | pseudovirus neutralization IC50 [6] [µg/mL] | pseudovirus neutralization IC50 [7] [µg/mL]
B1 | > 10 | > 10 | > 10 | > 10 | > 10 | > 10 | > 10
B2 | > 10 | > 10 | > 10 | > 10 | > 10 | > 10 | > 10
B3 | 0.806 | > 10 | > 10 | > 10 | > 10 | > 10 | 0.02
B4 | > 10 | > 10 | > 10 | > 10 | > 10 | > 10 | 0.0358
B5 | > 10 | > 10 | > 10 | > 10 | > 10 | > 10 | > 10
B6 | 5.8 | 7.18 | 9.63 | 6.2 | 5.35 | 4.85 | 3.7
